Measured values from several laboratories, pooled; numbers as filed in NIAID ChemDB.

Common to all: enzyme or target tests; agent: HIV-1; target: Reverse transcriptase; read by: nucleotide incorporation / radiometric; endpoint: IC50

Rows are shuffled and stem from different studies.

structure	strain or isolate	changes	result
CCN1c2ncc(COc3cccc(OC)c3)cc2C(=O)N(C)c2ccc(Cl)nc21	-	RT-Y181C	<1 µM
O=C(CSc1nnnn1-c1c(Cl)cccc1Cl)Nc1ccccc1Cl	-	-	<2 µM
CCC1(c2ccc(I)cc2)Oc2ccccc2-n2cccc2C1=O	-	RT-Y181I	>100 µM
CCN1c2ncc(CCc3ccncc3)cc2C(=O)N(C)c2ccc(Cl)nc21	WT	-	<1 µM
Cc1c(Cc2c(Cl)cccc2Cl)nc(SCc2ccc(C(C)C)cc2)[nH]c1=O	-	RT-181I	>400 µM
CCC1(c2ccc(COc3cccc(Cl)c3)cc2)Oc2ccccc2-n2cccc2C1=O	-	RT-L100I	0.25 µM
COc1cc(CSc2nc(Cc3c(F)cccc3F)c(C)c(=O)[nH]2)cc(OC)c1	-	RT-181I	>400 µM
CCC1(c2cccc(COc3ccccc3)c2)Oc2ccccc2-n2cccc2C1=O	-	RT-L100I	1.5 µM
CCN1c2ncc(COc3cccc(N)c3)cc2C(=O)N(C)c2ccc(Cl)nc21	WT	-	<1 µM
Cc1c(Cc2c(Cl)cccc2Cl)nc(SCc2ccc3c(c2)C(=O)c2ccccc2C3=O)[nH]c1=O	-	RT-181I	>400 µM
CCC1(c2ccc(COc3ccccc3)cc2)Oc2ccccc2-n2cccc2C1=O	-	RT-L100I	0.2 µM
Cc1cc(Br)cc(C)c1-n1nnnc1SCC(=O)Nc1ccccc1Cl	-	-	<2 µM
CCOc1cccc(C2(CC)Oc3ccccc3-n3cccc3C2=O)c1	-	RT-Y188L	0.76 µM
CCN1c2ncc(COc3cccc(C(=O)O)c3)cc2C(=O)N(C)c2ccc(Cl)nc21	-	RT-Y181C	<1 µM
O=C(CSc1nnnn1-c1cccc2ccccc12)Nc1ccc(Cl)cc1[N+](=O)[O-]	-	-	<2 µM
CCC1(c2cccc(I)c2)Oc2ccccc2-n2cccc2C1=O	-	RT-V106A	0.13 µM
Cc1cc(C)c(-n2nnnc2SCC(=O)Nc2ccccc2C#N)c(C)c1	-	-	<2 µM
Cc1cn([C@H]2CC[C@@H](COP(=O)(O)OP(=O)(O)OP(=O)(O)O)O2)c(=O)[nH]c1=O	-	RT-E138A	0.09 µM
CCN1c2ncc(COc3cc[n+]([O-])cc3)cc2C(=O)N(C)c2cccnc21	-	RT-Y181C	>1 µM
COc1ccc(CSc2nc(Cc3c(Cl)cccc3Cl)c(C)c(=O)[nH]2)cc1OC	-	RT-K103N	>400 µM
CCN1c2ncc(COc3cccc(C(N)=O)c3)cc2C(=O)N(C)c2ccc(Cl)nc21	WT	-	<1 µM
Cc1cc(C)c(-n2nnnc2SCC(=O)Nc2cccc(Cl)c2F)c(C)c1	-	-	<2 µM
CCN1c2ncc(CCc3ccccc3)cc2C(=O)N(C)c2ccc(-c3ccc[nH]3)nc21	WT	-	<1 µM
CCCCOc1ccc(CSc2nc(Cc3c(Cl)cccc3Cl)c(C)c(=O)[nH]2)cc1	-	RT-181I	>400 µM

2 of the rows above, restated:

structure | strain or isolate | changes | result
CCN1c2ncc(CCc3ccccc3)cc2C(=O)N(C)c2ccc(-c3ccc[nH]3)nc21 | WT | - | <1 µM
COc1cc(CSc2nc(Cc3c(F)cccc3F)c(C)c(=O)[nH]2)cc(OC)c1 | - | RT-181I | >400 µM

ICn is the concentration giving n% inhibition. Blank or dashed fields: not listed here.